Literature values in PMC7401249 (Marine Drugs, 2020).

Assays:
molluscan NaV channel = details: ref [3], cited from earlier work
mollusc NaVs = details: sites adjacent to the binding sites of CsTx and GPT; ref [4],[5],[6]; cited from earlier work

## CC[C@H](C)[C@@H]1NC(=O)[C@@H]2CSSC[C@@H]3NC(=O)[C@H](CCSC)NC(=O)[C@H](CCC(=O)O)NC(=O)CNC(=O)[C@H](CO)NC(=O)[C@H](CCC(N)=O)NC(=O)[C@H](CCCCN)NC(=O)[C@@H](NC(=O)[C@@H](N)Cc4c[nH]c5ccccc45)CSSC[C@H](NC(=O)[C@H](CSSC[C@@H](C(=O)N[C@H](C(=O)O)[C@@H](C)O)NC(=O)[C@H](C(C)C)NC(=O)[C@H](CC(C)C)NC(=O)[C@H](C(C)C)NC1=O)NC(=O)[C@H](CC(N)=O)NC(=O)[C@H](CCC(N)=O)NC(=O)[C@H](CC(=O)O)NC(=O)[C@H](CC(C)C)NC(=O)[C@H](CC(C)C)NC(=O)[C@H](CC(N)=O)NC3=O)C(=O)N[C@@H](CC(=O)O)C(=O)NCC(=O)N[C@@H](Cc1ccc(O)cc1)C(=O)N2
Molluscan NaV channel; 0.5 µM
  effect on inactivation of molluscan NaV current at 0.5 µM: slow inactivation of molluscan NaV current
Molluscan NaV channel
  effect on NaV channel inactivation in molluscs: potently slow NaV channel inactivation
Mollusc NaVs
  binding to mollusc NaVs: binds
